The values that follow come from patent US20040258699A1 (published 2004).

For orientation: Kd means the constant that tells how readily two partners part at equilibrium. Read a low Kd as a tighter complex. One may read the koff as the rate constant with which the complex falls apart. The kon is the second-order rate constant of association. A word on the EC50: it is the midpoint of the concentration-response curve. Low values mean greater potency, high ones weaker potency.

Assay [1] addresses T1, PA83 (anthrax protective antigen, 83 kDa form) (Bacillus anthracis, UniProt P13423 30-764). Briefly: SPR (Biacore), kd/ka. A general note: SPR reads the build-up and loss of mass on a sensor chip optically.
In assay [2] the target is T2, PA63 (anthrax protective antigen, 63 kDa form) (Bacillus anthracis, UniProt P13423 197-764). As to the kind of experiment: SPR (Biacore), immobilized PA63, kd/ka.
In assay [3] the target is T2, PA63 (anthrax protective antigen, 63 …). As to the kind of experiment: SPR (Biacore), immobilized PA63.
Assay [4] deals with T1, PA83 (anthrax protective antigen, 83 …). Briefly: SPR (Biacore).
The target of assay [5] is T2, PA63 (anthrax protective antigen, 63 …).
Assay [6] deals with T1, PA83 (anthrax protective antigen, 83 …).

B1: Fab 83K7C (Fab, V domains shown)
VH: QVQLVQSGAEVKKPGASVKVSCKASGYTFTYYAMHWVRQAPGQRPEWMGWINGGDGKTKYAQKFQGRLAITRDTSARTAYMELISLTSEDTAVYYCAKGAEMTVGSWGPGTLVTVSS
VL: DIQMTQSPSSLSASVGDRVTLTCRASQGVRNALVWYQQKPGKAPERLIYAASILQSGVPSRFSGSGSGTEFTLTIGGLQPEDFATYYCLQHNSYPWTFGQGTKVEIK
Turning to B1, the dissociation constant (Kd) in assay [1] is 3.67 nM; in assay [2] it was 0.87 nM. Besides, the koff turned out to be 8.5e-05 s⁻¹ in assay [3] and 0.000426 s⁻¹ in assay [4]. In addition, the kon in assay [3] turned out to be 97700 M⁻¹ s⁻¹; in assay [4] it was 116000 M⁻¹ s⁻¹. This molecule yielded an EC50 in assay [5] of under 1 µg/mL.

B2: Fab 83L8E (Fab, V domains shown)
VH: EVQLVESGGGEVQPGRSLRLSCAASGFIFRSFGMHWVRQAPGKGLEWVAAISYDGTNKDYGDSVKGRFTISRDNSRNMVYLQMNSLRAEDTAVYYCAKEGVIIPAATKDRSNYFDYWGQGTLVTVSS
VL: QAVLTQPSSLSASPGASASLTCTLRSGFYVGSYMINWYQQKPGSPPQFLLRYRSDSDIQRGSGVPSRFSGSKDTSANAGILLISGLQPEDEADYYCMIWHIDTVFFGGGSKLTVL
In the case of B2, in assay [6], the “IC50 (read off the curve)” value was about 0.4 µg/mL.
